Experimental data as given in paper PMC9457815 (Molecules, 2022).

Key:
HIV-1GFP = type: cell-based, human immunodeficiency virus (HIV)-1
Method: (§1) The plasmid used to obtain the DENVGFP vector (pFK-DVs-G2A) was provided by Ralf Bartenschlager (Heidelberg University, Heidelberg, Germany) and Laurent Chatel-Chaix (Institut National de la Recherche Scientifique, Laval, QC, Canada). The 2 plasmids used to obtain the HIV-1GFP vector were PMD2.G and pNL4-3-GFPΔEnvΔNef. For DENVGFP, viral titer was measured using a plaque assay in Vero cells, as described in [53]. For HIV-1GFP, the viral titer was obtained by measuring the infectivity of serially diluted vectors in CRFK cells, as described in [54].
(§2) Briefly, 7.5 × 10^3 Huh7 cells/well or 2 × 10^4 THP-1 cells/well were plated in 96-well plates at 37 °C for 24 h. […] Each dilution was added to the cell plates to obtain final concentrations of 1.56 µM to 200 µM for alkaloids and matched concentrations of DMSO, and 0.05 µM to 6.4 µM for lycorine or 0.078 µM to 10 µM for raltegravir. Lycorine and raltegravir were used as DENV and HIV-1 inhibitor controls, respectively. DENVGFP and HIV-1GFP were then added at multiplicities of infection (MOIs) of 0.025 and 0.1, respectively. Plates were placed in an incubator at 37 °C and 5% CO2 for 72 h. Afterward, the cells were fixed in 3.7% formaldehyde and the percentage of infection was measured using flow cytometry with an FC500 MPL cytometer (Beckman Coulter, Inc., Brea, CA, USA). Data analysis was performed using Flowjo software (BD, FlowJo LLC, Ashland, OR, USA). All experiments were performed at least twice. EC50 values were calculated using QuestGraph IC50 calculator software (MLA Quest Graph™ IC50 Calculator. AAT Bioquest, Inc. https://www.aatbio.com/tools/ic50-calculator (accessed on 1 July 2022)).

DENVGFP = experiment: Antiviral assay, propagative DENVGFP vector in Huh7 cells, flow cytometry; type: cell-based, dengue virus (serotype 2); settings: SI = CC50/EC50 (Huh7)
Method: as §1, §2

| Structure (SMILES) | SI HIV-1 (HIV-1GFP; SI = CC50/EC50 (THP-1)) | SI DENV (DENVGFP) | SI HIV-1 (HIV-1GFP; ratio CC50 / EC50) |
| --- | --- | --- | --- |
| O=Cc1ccc(O)c(O)c1 [3,4-DHBA, 3,4-dihydroxybenzaldehyde] | 0.6 | – | – |
| NCCc1ccc(O)cc1 [Tyramine] | <1.0 | <1.0 | – |
| COc1ccc(CNCCc2ccc(O)cc2)cc1O [4′-O-methylnorbelladine] | – | – | >1.8 |
| COc1ccc(/C=N/CCc2ccc(O)cc2)cc1O [4′-O-methylnorcraugsodine] | <1.0 | <1.0 | – |
| Oc1ccc(CCNCc2ccc(O)c(O)c2)cc1 [Norbelladine] | – | 1.4 | – |
| COc1ccc(/C=N/CCc2ccc(O)cc2)cc1OC [3′,4′-O-dimethylnorcraugsodine] | <1.0 | <1.0 | – |
| Oc1ccc(CC/N=C/c2ccc(O)c(O)c2)cc1 [Norcraugsodine] | 0.5 | 3.2 | – |
| Cc1nnc(C(=O)NC(C)(C)c2nc(C(=O)NCc3ccc(F)cc3)c(O)c(=O)n2C)o1 [Raltegravir, reference compound] | >102 | – | – |
| COc1cc(CNCCc2ccc(O)cc2)ccc1O [3′-O-methylnorbelladine] | – | – | 0.73 |
| COc1cc(/C=N/CCc2ccc(O)cc2)ccc1O [3′-O-methylnorcraugsodine] | – | >1.1 | – |
| O[C@H]1[C@H]2c3cc4c(cc3CN3CCC(=C[C@@H]1O)[C@H]23)OCO4 [Lycorine, reference compound] | – | 193.3 | – |
| COc1ccc(CNCCc2ccc(O)cc2)cc1OC [3′,4′-O-dimethylnorbelladine] | – | – | >2.0 |

Read-outs that look alike come from different tables or passages of the source.
